Test system: CN(C)[C@@H]1C(=O)C(C(N)=O)=C(O)[C@@]2(O)C(=O)C3=C(O)c4c(O)cccc4[C@@](C)(O)[C@H]3C[C@@H]12
Test: purified protein
Settings: pH 8.5

| Substance | Km [µM] |
| --- | --- |
| Tet(56-2) (Legionella clemsonensis) | 5.2 ± 0.4 |
| Tet(56-3) (Legionella massiliensis) | 14.6 ± 2.0 |
